Results of unrelated studies side by side (data: NIAID ChemDB).

Common to all: whole-cell or culture tests; species: Herpes simplex virus 1; read-out: EC50

ECn: concentration that inhibits the pathogen or its effect by n%. An empty or dashed field is not shown. Two numbers with a dash give a range or band. Lines come from different laboratories, so protocols vary.

OC[C@H]1O[C@@H](c2cc(/C=C/I)c(F)cc2F)C[C@@H]1O ; read by: cytopathic effect ; strain or isolate: McIntyre ; cells: E6SM ; value: 48 µg/mL
Nc1nc2c(ncn2COC(CO)CO)c(=O)[nH]1 ; read by: cytopathic effect ; cells: VERO ; value: 1 µg/mL
CCc1cc([C@H]2C[C@H](O)[C@@H](CO)O2)c(F)cc1F ; read by: cytopathic effect ; strain or isolate: F ; cells: E6SM ; value: >400 µg/mL
O=C(Nn1c(-c2cn(-c3ccccc3)nc2-c2ccccc2)n[nH]c1=S)c1ccccc1 ; read by: cytopathic effect ; strain or isolate: KOS (TK-) ; cells: HEL ; value: >16 µg/mL
c1cc(-c2ccc(NC3CCCC3)n3nc(-c4ccc(OCC5CC5)cc4)cc23)nc(NC2CCCC2)n1 ; read by: antigen / hybridisation ; strain or isolate: SC16 ; cells: VERO 76 ; value: 0.17 µM
Nc1ccn(C[C@H]2COP(=O)(O)CO2)c(=O)n1 ; cells: MRC-5 ; value: 2.3 µM
O=c1c2ncn(COCCO)c2nc2[nH]c(-c3ccccc3)c(Cc3ccccc3)n12 ; read by: cytopathic effect ; strain or isolate: KOS ; cells: HEL ; value: >16 µg/mL
O=C(NCc1ccc(Cl)cc1)c1c[nH]c2c(F)cccc2c1=O ; read by: plaque count ; strain or isolate: 294 ; value: 29 µM
CO[C@H](CO)[C@@H](O)CCn1cnc2c(=O)[nH]c(N)nc21 ; read by: cytopathic effect ; strain or isolate: VMW1837 (TK-) ; cells: E6SM ; value: >400 µg/mL
Nc1nc2c(ncn2CCC(CO)CO)c(=O)[nH]1 ; read by: plaque count ; value: 0.1–1 µM
C/C(=N/Nc1nc(-c2ccccc2)cs1)c1ccc(NC(=O)CN2C(=O)c3ccccc3S2(=O)=O)cc1 ; changes: TK-deficient acyclovir-resistant ; read by: cytopathic effect ; strain or isolate: KOS ; cells: HEL ; value: 20 µM
CCOC(=O)Sc1nnc(-c2cn(-c3ccccc3)nc2-c2ccccc2)n1N ; read by: cytopathic effect ; strain or isolate: KOS ; cells: HEL ; value: >16 µg/mL
O=c1[nH]c(=O)n([C@H]2C[C@H](O)[C@@H](CO)O2)cc1I ; read by: cytopathic effect ; strain or isolate: KOS ; cells: ESM ; value: 0.1 µg/mL
O=C1CSc2nnc(-c3cn(-c4ccccc4)nc3-c3ccccc3)n2N1 ; read by: cytopathic effect ; strain or isolate: KOS ; cells: HEL ; value: >16 µg/mL
Nc1nc2c(ncn2COCCO)c(=O)[nH]1 ; read by: plaque count ; strain or isolate: H129 ; cells: VERO ; value: 0.2 µg/mL
NC(=O)CSc1ncnc2c1cnn2COCC(O)CO ; read by: cytopathic effect ; strain or isolate: VWM1837 (TK-) ; cells: E6SM ; value: >400 µg/mL
CCc1cn([C@H]2C[C@H](O)[C@@H](CO)O2)c(=O)[nH]c1=O ; read by: cytopathic effect ; strain or isolate: F ; cells: PRK ; value: 0.7 µg/mL
CCOC(=O)C1Sc2nnc(-c3cn(-c4ccccc4)nc3-c3ccccc3)n2NC1=O ; read by: cytopathic effect ; strain or isolate: KOS ; cells: HEL ; value: >80 µg/mL
C/C(=N/Nc1nc(-c2ccc(Cl)cc2)cs1)c1ccc(NC(=O)CN2C(=O)c3ccccc3S2(=O)=O)cc1 ; read by: cytopathic effect ; strain or isolate: KOS ; cells: HEL ; value: >20 µM
CCC(Sc1ncnc2c1cnn2COCC(O)CO)C(N)=O ; read by: cytopathic effect ; strain or isolate: B2006 (TK-) ; cells: E6SM ; value: >400 µg/mL
O=c1c2ncn(COCCO)c2nc2[nH]c(-c3ccc(F)cc3)cn12 ; read by: cytopathic effect ; strain or isolate: McIntyre ; cells: HEL ; value: >16 µg/mL
O=C(O)P(=O)(O)O ; read by: plaque count ; strain or isolate: HL-3 ; cells: MEF ; value: 4.9 µg/mL
Nc1ccn(CC[C@H](O)CCO)c(=O)n1 ; read by: cytopathic effect ; strain or isolate: KOS ; cells: E6SM ; value: >400 µg/mL
Fc1ccc(-c2cc3c(-c4ccnc(NC5CCC5)n4)ccc(NC4CCC4)n3n2)cc1 ; read by: antigen / hybridisation ; strain or isolate: SC16 ; cells: VERO 76 ; value: 0.51 µM
Nc1nc2c(ncn2COCCO)c(=O)[nH]1 ; read by: cytopathic effect ; strain or isolate: KOS ; cells: ESM ; value: 0.07 µg/mL
Cc1cn([C@@H]2O[C@H](CO)[C@H]2CO)c(=O)[nH]c1=O ; read by: plaque count ; strain or isolate: SC16-S1 (TK altered) ; cells: HFF ; value: 34 µg/mL
Nc1nc2c(ncn2CCCC(CO)CO)c(=O)[nH]1 ; read by: plaque count ; strain or isolate: C1 (101) ; cells: VERO ; value: 1.5 µM
O=C(O)P(=O)(O)O ; read by: plaque count ; strain or isolate: ACG-resistant ; cells: RK-13 ; value: 31 µM
S=c1[nH]nc(-c2cn(-c3ccccc3)nc2-c2ccccc2)o1 ; read by: cytopathic effect ; strain or isolate: KOS (TK-) ; cells: HEL ; value: >16 µg/mL
Nc1nc2c(ncn2COC(CO)CO)c(=O)[nH]1 ; read by: plaque count ; strain or isolate: KOS ; cells: VERO ; value: 0.55 µg/mL
CC(C)NS(=O)(=O)c1ccccc1C(=O)NNC(=O)c1ccc(Cl)cc1 ; changes: TK-deficient acyclovir-resistant ; read by: cytopathic effect ; strain or isolate: KOS ; cells: HEL ; value: >100 µM
c1ccc(-c2cccc(-c3cc4c(-c5ccnc(NC6CCCC6)n5)ccc(NC5CCCC5)n4n3)c2)cc1 ; read by: antigen / hybridisation ; strain or isolate: SC16 ; cells: VERO 76 ; value: 2.18 µM
Cc1cn(CC[C@H](O)CCO)c(=O)[nH]c1=O ; read by: cytopathic effect ; strain or isolate: KOS ; cells: E6SM ; value: >400 µg/mL
CCOC(=O)CSc1nnc(-c2cn(-c3ccccc3)nc2-c2ccccc2)n1N ; read by: cytopathic effect ; strain or isolate: KOS (TK-) ; cells: HEL ; value: >80 µg/mL
Nc1nc2c(ncn2[C@@H]2CO[C@H](CO)[C@@H](O)C2)c(=O)[nH]1 ; read by: plaque count ; value: 0.1–1 µM
CCC(Sc1ncnc2c1cnn2COCCO)C(N)=O ; read by: cytopathic effect ; strain or isolate: KOS ; cells: E6SM ; value: >400 µg/mL
CCOC(=O)C1=CSc2nnc(-c3cn(-c4ccccc4)nc3-c3ccccc3)n2N=C1N ; read by: cytopathic effect ; strain or isolate: KOS ; cells: HEL ; value: >16 µg/mL
Nc1nc2c(ncn2C[C@]2(CO)C[C@H]2CO)c(=O)[nH]1 ; read by: plaque count ; value: 0.01–0.1 µM
Oc1cccc(-c2cc3c(-c4ccnc(NC5CCCC5)n4)ccc(NC4CCCC4)n3n2)c1 ; read by: antigen / hybridisation ; strain or isolate: SC16 ; cells: VERO 76 ; value: 0.66 µM
CCCCC(C)(C)[C@H](O)/C=C/[C@H]1C=CC(=O)[C@@H]1CCCCCCC(=O)O ; read by: hybridisation ; strain or isolate: H198 ; cells: VERO ; value: 3.8 µg/mL
Nc1ccc(-c2cc3c(-c4ccnc(NC5CCC5)n4)ccc(NC4CCC4)n3n2)cc1 ; read by: antigen / hybridisation ; strain or isolate: SC16 ; cells: VERO 76 ; value: 1.07 µM
Cc1c(-c2ccc(C(F)(F)F)cc2)[nH]c2nc3c(ncn3COCCO)c(=O)n12 ; read by: cytopathic effect ; strain or isolate: McIntyre ; cells: HEL ; value: 16 µg/mL
Nc1ncnc2c1ncn2[C@@H]1O[C@H](CO)[C@@H](O)[C@@H]1O ; read by: cytopathic effect ; strain or isolate: KOS ; cells: BALB/3T3 ; value: 7 µg/mL
Nc1nc2c(ncn2C/C=C\CO)c(=O)[nH]1 ; read by: plaque count ; strain or isolate: C42 ; cells: VERO ; value: 0.8 µM
Cc1cccc(-c2cc3c(-c4ccnc(NC5CCCC5)n4)ccc(NC4CCCC4)n3n2)c1 ; read by: antigen / hybridisation ; strain or isolate: SC16 ; cells: VERO 76 ; value: 0.22 µM
O=c1c2ncn(COCCO)c2nc2[nH]c(-c3ccc(C(F)(F)F)cc3)cn12 ; read by: cytopathic effect ; strain or isolate: F ; cells: HEL ; value: 16 µg/mL
CCCCCCCCCCCCCCCCOCCCOP(=O)(O)CO[C@H](CO)Cn1ccc(N)nc1=O ; read by: plaque count ; cells: MRC-5 ; value: 0.08 µM
CCc1cn([C@H]2C[C@H](O)[C@@H](CO)O2)c(N)nc1=O ; read by: cytopathic effect ; strain or isolate: B2006 (TK-) ; cells: PRK ; value: >400 µg/mL
c1cc(-c2ccc(NC3CCCC3)n3nc(-c4ccc(OCC5CCC5)cc4)cc23)nc(NC2CCCC2)n1 ; read by: antigen / hybridisation ; strain or isolate: SC16 ; cells: VERO 76 ; value: 0.35 µM
Cc1ccc(C)c(NC(=O)CN2C(=O)c3ccccc3S2(=O)=O)c1 ; read by: cytopathic effect ; strain or isolate: KOS ; cells: HEL ; value: >100 µM
CCOC(=O)COc1ccc(-c2cc3c(-c4ccnc(NC5CCCC5)n4)ccc(NC4CCCC4)n3n2)cc1 ; read by: antigen / hybridisation ; strain or isolate: SC16 ; cells: VERO 76 ; value: 3.29 µM
NC1=NC2C(C=CN2CC(CO)CCO)C(=O)N1 ; read by: cytopathic effect ; strain or isolate: TK- ; cells: VERO ; value: >100 µg/mL
C=Cc1cc([C@H]2C[C@H](O)[C@@H](CO)O2)c(F)cc1F ; read by: cytopathic effect ; strain or isolate: KOS ACV-R (TK-) ; cells: E6SM ; value: >400 µg/mL
NC(=O)c1cccc(-c2cc3c(-c4ccnc(NC5CCCC5)n4)ccc(NC4CCCC4)n3n2)c1 ; read by: antigen / hybridisation ; strain or isolate: SC16 ; cells: VERO 76 ; value: 1.67 µM
Nc1nc2c(ncn2COC(CO)CO)c(=O)[nH]1 ; changes: TK-deficient acyclovir-resistant ; read by: cytopathic effect ; strain or isolate: KOS ; cells: HEL ; value: 10 µM
Nc1ccn(C[C@@H](CO)OCP(=O)(O)O)c(=O)n1 ; cells: MRC-5 ; value: 3.3 µM
O=c1[nH]c(=O)n([C@H]2C[C@H](O)[C@@H](CO)O2)cc1/C=C/Br ; read by: cytopathic effect ; strain or isolate: KOS ; cells: VERO ; value: 0.1 µg/mL
CC(Sc1ncnc2c1cnn2COCCO)C(N)=O ; read by: cytopathic effect ; strain or isolate: B2006 (TK-) ; cells: E6SM ; value: >400 µg/mL
O=c1[nH]c(=O)n([C@H]2C[C@H](O)[C@@H](CO)O2)cc1/C=C/Br ; read by: plaque count ; strain or isolate: VR-3 ; cells: CCRF-HSV-B ; value: 0.048 µg/mL
CO[C@H](CO)[C@@H](O)CCn1ccc(N)nc1=O ; read by: cytopathic effect ; strain or isolate: VMW1837 (TK-) ; cells: E6SM ; value: >400 µg/mL

Repeating the first 3 entries:

smiles	changes	read by	strain or isolate	cells	value
OC[C@H]1O[C@@H](c2cc(/C=C/I)c(F)cc2F)C[C@@H]1O	-	cytopathic effect	McIntyre	E6SM	48 µg/mL
Nc1nc2c(ncn2COC(CO)CO)c(=O)[nH]1	-	cytopathic effect	-	VERO	1 µg/mL
CCc1cc([C@H]2C[C@H](O)[C@@H](CO)O2)c(F)cc1F	-	cytopathic effect	F	E6SM	>400 µg/mL